Assay results taken from patent US20240117402A1, “METHODS FOR (POLY) PEPTIDE TANDEM LIGATION AND CYCLIZATION” (Nanyang Technological University, priority 2021, published 2024).

Experiments:
[1] = tested on: MCF-7 cells; assay: MTT cell viability assay, MCF-7; type: cell-based; conditions: MCF-7, 96 h, varying concentrations
[2] = tested on: A431 cells; assay: MTT cell viability assay, A431; type: cell-based; conditions: A431, 96 h, varying concentrations

## affibody 16: affibody ZEGFR with thiazolidine-capped N-terminal CG- and C-terminal -NGL (Thz-SEQ ID NO:38)
[1]
  cytotoxic effect: little cytotoxic effect even at very high concentrations
[2]
  cytotoxic effect: little cytotoxic effect even at very high concentrations
